{
  "source": "ChEMBL document CHEMBL1156829",
  "about": "(Proc Natl Acad Sci U S A, 2008)",
  "key": {"Plasmodium falciparum [1]": {"system": "Plasmodium falciparum", "assay": "NOVARTIS: Inhibition of Plasmodium falciparum W2 (drug-resistant) proliferation in erythrocyte-based infection assay", "format": "functional, organism-based"}, "Plasmodium falciparum [2]": {"system": "Plasmodium falciparum", "assay": "NOVARTIS: Inhibition of Plasmodium falciparum 3D7 (drug-susceptible) proliferation in erythrocyte-based infection assay", "format": "functional, organism-based"}},
  "data": [
    {"smiles": "CCCN(CCC)[P+](C)(N(CCC)CCC)N(CCC)CCC", "values": [
      {"measurement": "EC50", "setting": "Plasmodium falciparum [1]", "value": 580, "unit": "nM"},
      {"measurement": "EC50", "setting": "Plasmodium falciparum [2]", "value": 895, "unit": "nM"}
    ]},
    {"smiles": "CN(C)[P+](C)(N(C)C)N(C)C", "values": [
      {"measurement": "EC50", "setting": "Plasmodium falciparum [1]", "value": 382, "unit": "nM"},
      {"measurement": "EC50", "setting": "Plasmodium falciparum [2]", "value": 442, "unit": "nM"}
    ]},
    {"smiles": "CCCN(CCC)[P+](CC)(N(CCC)CCC)N(CCC)CCC", "values": [
      {"measurement": "EC50", "setting": "Plasmodium falciparum [1]", "value": 273, "unit": "nM"},
      {"measurement": "EC50", "setting": "Plasmodium falciparum [2]", "value": 207, "unit": "nM"}
    ]}
  ]
}
